Assay [1] concerns the target LEDGF-Integrase interaction (Human immunodeficiency virus type 1 group M subtype B, UniProt P12497). As to the kind of experiment: HTRF Interaction assay (S9118). Also on record: species or system HIV. The conditions noted are these: read-out: HTRF Interaction assay (S9118); His6-tagged integrase and MBP-LEDGF integrase binding domain; table values. A general note: TR-FRET usually uses a lanthanide donor and a delayed reading to cut background.

Assay [2] relates to HIV-1 virus (NL4.3 strain). As to the kind of experiment: MT-2 based antiviral assay (S8737E). The assay is classed as cell-based. The following applies: read-out: Antiviral Activity (S8737E); HIV-1 NL4.3 replication in MT2 cells, 3 days, β-Gal readout in JC53BL cells. The text has this: MT-2 Based Antiviral Assay (S8737E)
This assay is designed to determine the effects of small molecules on the replication of HIV-1 in the lymphobastoid cell line, MT2, and is able to detect the antiviral effect of compounds acting at any stage of the HIV-1 replication cycle. The assay, along with its associated cytotoxicity assay, was described in detail in 2005 in a paper by Cao et al (Antimicrobial Agents and Chemotherapy 2005; 49(9), p 3833-3841).
MT2 cells are infected with the HIV-1 virus (NL4.3 strain; Adachi et al., Journal of Virology 1986) and transferred to assay plates containing serial dilutions of compounds to be tested. The assay plates are incubated for 3 days (MT2) to allow for several rounds of viral replication/infection to take place. At the end of this time, supernatant is transferred into new plates containing JC53BL cells.
JC53BL cells express CXCR4, CCR5 and CD4 receptors, and HIV-1-LTR-β-Gal. Under normal culture conditions undetectable levels of β-Galactosidase are expressed, but in the presence of HIV-1, the viral Tat protein is able to activate the HIV-1-LTR in the JC53BL cells resulting in the increased expression of the β-Gal enzyme. The expression can be measured using the ‘FluorAce β-Galactosidase reporter’ assay. The levels of β-Gal are directly proportional to the levels of Tat (up to a threshold) allowing virus quantification. […]

Results on one molecule are retold here after patent publication US9447116B2, “Inhibitors of HIV replication” (priority 2010, dated 2016).

Where only a bound is given, the exact number is not on record here.

On to `CCOC(C(=O)O)c1c(C)nc2sc3c(c2c1-c1ccc2ncn(C)c2c1)CCCC3` (centres unmarked), for which the values for the IC50 in assay [1] and in assay [2] were over 100 µM and 15.7 µM, respectively.
